Source: article PMC12212627, “Machine Learning-Based Virtual Screening of Antibacterial Agents against Methicillin-Susceptible and Resistant Staphylococcus aureus” (Journal of Chemical Information and Modeling, 2024)

What was measured:
Assay type in all cases: cell-based, Staphylococcus aureus
Details in all cases: ratio between CC50 (Vero) and MIC
[1] = test system: MRSA (ATCC n° 43300); assay: Broth microdilution (CLSI): screening at 100 μM and MIC, MRSA reference strain
Method: (§1) E. coli (ATCC n° […]) – a TEM-1 β-lactamase producing strain, S. aureus (ATCC n° 29213) – herein referred to as MSSA, MRSA (ATCC n° 43300), and two clinical strains of MRSA (n° 5749 and 6154) were used in the biological assays. The antibacterial activity and minimal inhibitory concentration (MIC) of the screened compounds were evaluated with the broth microdilution method in 96-well microplates, according to the Clinical and Laboratory Standards Institute (CLSI) protocol. Initially, compounds were evaluated in a screening assay to identify promising hits. The compounds were dissolved in dimethyl sulfoxide (DMSO) and then diluted in Mueller Hinton broth (MHB; Oxoid, Thermo Scientific, U.K.) to a concentration of 200 μM. After the addition of 100 μL to each well, the same volume of bacterial suspension containing 10^5 CFU/mL was added to each of the previous solutions, resulting in a final compound concentration of 100 μM. A viability control (bacterial suspension only), inhibition controls (MHB containing five times the MIC of penicillin G for MSSA, vancomycin for MRSA strains, and streptomycin for E. coli), a sterility control (medium only), and a vehicle control (DMSO 2% v/v) were included in each assay microplate. After 24 h of incubation at 37 °C, the microplates were visually inspected for inhibition of bacterial growth, and the absorbance at 600 nm of each well was read using a microplate reader spectrophotometer (VersaMax, Molecular Devices, CA). The percentage of growth inhibition was calculated as the percentage of growth reduction compared with the vehicle control. Wells showing no visual bacterial growth (no turbidity) were considered hits. The MIC of the promising compounds in the initial screening were tested as previously described, with a serial dilution of each compound (100–1.56 μM). All conditions were tested in triplicate from at least three independent assays.

[2] = test system: S. aureus (ATCC n° 29213), MSSA; assay: Broth microdilution (CLSI): screening at 100 μM and MIC, MSSA
Method: as §1

[3] = test system: clinical strain of MRSA n° 5749; assay: Broth microdilution (CLSI): screening at 100 μM and MIC, MRSA clinical strain 5749
Method: as §1

[4] = test system: clinical strain of MRSA n° 6154; assay: Broth microdilution (CLSI): screening at 100 μM and MIC, MRSA clinical strain 6154
Method: as §1

SMILES	SI, MRSA (ATCC 43300) [1]	SI, MSSA (ATCC 29123) [2]	SI, MRSA (5749) [3]	SI, MRSA (6154) [4]
O=C(NCCCOCCCNC(=O)c1ccc(-c2ccc(Br)cc2)o1)c1ccc(-c2ccc(Br)cc2)o1 [Compound 6, N,N′-(oxybis(propane-3,1-diyl))-bis(5-(4-bromophenyl)furan-2-carboxamide)]	0.43	0.87	0.43	0.43
C#CCOC1=CC(=O)c2ccccc2C1=O [Compound 3, 2-[(prop-2-yn-1-yl)oxy]-1,4-naphtoquinone]	0.42	0.42	0.42	0.42
Cc1ccc(OCC(N)COc2ccc(C)cc2)cc1 [Compound 4, 1,3-bis(4-methylphenoxy)propano-2-aminium chloride]	0.19	0.38	–	–
CC(=O)O[C@@H]1[C@H](OC(C)=O)[C@H](C)O[C@H](n2cc(COC3=CC(=O)c4ccccc4C3=O)nn2)[C@H]1OC(C)=O [Compound 1, 2-[1-(2,3,4-tri-O-acetyl-6-deoxy-β-L-galactopyranosyl)-1,2,3-triazol-4-(methyl)oxy]-1,4-naphtoquinone]	<0.33	0.33	<0.33	<0.33
